Test results as given in BindingDB's records for US20250213569.

Biological target: Replicase polyprotein 1ab (Severe acute respiratory syndrome coronavirus 2, UniProt P0DTD1)
Test: In Vitro Inhibition of SARS NSP14/NSP10 Exonuclease Activity

## CC(C)=CCOc1ccc(/C=C/C(=O)c2ccc(OCC=C(C)C)cc2OCC(=O)O)cc1
  IC50: 6.02 µM
